Experimental data published in patent publication US20230218496A1, “IONIC LIQUID AS AN ANTIPERSPIRANT” (Novigo GmbH, priority 2020, published 2023).

Experiment: Staining on white and black cotton textiles
Settings: 7.5% by weight in water, 2 mL, 24 hours, before washing

## CCCCCC[n+]1ccccc1.[Cl-] [1-hexylpyridinium chloride]
  residue on black cotton textile: no residue at all
  residue on white cotton textile: slight, light yellow residue
